Results of unrelated studies side by side (data: NIAID ChemDB).

Common to all: whole-cell or culture tests; species: Mycobacterium tuberculosis

ECn: concentration that inhibits the pathogen or its effect by n%. Neighbouring rows are from separate reports. Percent inhibition refers to the dose given; in toxicity tests it is the harm to the cells. MIC bound: limit read from a one-dose screen. Blank or dashed fields: not listed here.

compound	method	strain	measure	cells	tested at	result
O=C(O)c1cc(C(=O)O)c(C(=O)O)cc1C(=O)O	-	H37Rv	MIC	-	-	>100 µg/mL
COc1cc2cccnc2c2[nH]cc(C(=O)O)c(=O)c12	BACTEC	H37Rv	MIC bound	-	-	>12.5 µg/mL
CCOC(=O)Nc1cc(NNC=O)c([N+](=O)[O-])c(N)n1	-	H37Rv	EC50	-	-	>12.5 µg/mL
CC1CC(C)C2Cc3c4c(cc5ccccc35)CCC4C2C1	-	H37Rv	MIC	-	-	>100 µg/mL
CO[C@H]1/C=C/O[C@@]2(C)Oc3c(C)c(O)c4c(O)c(c(/C=N/N5CCN(C/C=C/c6ccccc6)CC5)c(O)c4c3C2=O)NC(=O)/C(C)=C\C=C\[C@H](C)[C@H](O)[C@@H](C)[C@@H](O)[C@@H](C)[C@H](OC(C)=O)[C@@H]1C	-	2749 (rifampin-sensitive)	MIC	-	-	0.1 µg/mL
O=c1c(O)c(-c2ccc(O)c(O)c2)oc2cc(O)ccc12	BACTEC	H37Rv	inhibition	-	12.5 µg/mL	16%
COc1ccc(CNCCNCCc2ccc(F)cc2)c(OC)c1	-	-	MIC	-	-	50 µM
Cc1c(C)c2ccc3oc4ccccc4c3c2oc1=O	BACTEC	H37Rv	inhibition	-	12.5 µg/mL	-8%
c1cc(NCCNC2CCCCC2)c2cccnc2c1	-	-	MIC	-	-	3.13 µM
COc1cc(CCC(=O)O)ccc1O	-	H37Rv	MIC	-	-	>100 µg/mL
NNC(=O)c1cc2ccccc2cc1O	BACTEC	H37Rv	MIC	-	-	≥12.5 µg/mL
CCOC(=O)Nc1cc(NC(C)C(O)c2ccc(O)cc2)c([N+](=O)[O-])c(N)n1	-	H37Rv	inhibition	-	12.5 µg/mL	0%
c1ccc(CCCCNCCNCc2cccc3ccccc23)cc1	-	-	MIC	-	-	25 µM
CC(=O)Nc1ccc(NC(C)=O)cc1	-	H37Rv	MIC	-	-	>100 µg/mL
CO[C@H]1/C=C/O[C@@]2(C)Oc3c(C)c(O)c4c(=O)c(c5oc6cc(N7CCN(C(C)C)CC7)cc(=O)c6nc5c4c3=C2O)NC(=O)/C(C)=C\C=C\[C@H](C)[C@H](O)[C@@H](C)[C@@H](O)[C@@H](C)[C@H](OC(C)=O)[C@@H]1C	-	9 (rifampin-resistant)	MIC	-	-	0.05 µg/mL
CSC(=S)NN=C1CCCC1	BACTEC	H37Rv	MIC	VERO	-	0.78 µg/mL
CC(C(=O)O)c1cccc2ccccc12	-	H37Rv	MIC	-	-	>100 µg/mL
CC1=NN(c2cc(Cl)c(S(=O)(=O)O)cc2Cl)C(=O)C1N=Nc1ccc(S(=O)(=O)O)cc1	BACTEC	H37Rv	MIC bound	-	-	>12.5 µg/mL
NC1CCCCC1	-	H37Rv	MIC	-	-	>100 µg/mL
CC1(C)CCC[C@]2(C)[C@H]3C=C4C=C(O)C(=O)C=C4O[C@@]3(C)CC[C@@H]12	-	RMP-R	MIC	-	-	12.5 µg/mL
O=C(O)c1cccc(N=Nc2ccc(O)c(Cl)c2)c1	-	H37Rv	MIC	-	-	>100 µg/mL
Cc1oc2ccccc2c(=O)c1Cn1cnc2ccc([N+](=O)[O-])cc21	resazurin	H37Rv	inhibition	-	6.25 µg/mL	4%
FC(F)(F)Oc1ccc(CNCCNC2C3CC4CC(C3)CC2C4)cc1	-	-	MIC	-	-	12.5 µM
CC(C)=CCC/C(C)=C/COc1ccc(/C=C2\C(=O)N(O)[C@@H](C)C(=O)N2O)cc1	-	EMB-R	MIC	-	-	6.3 µg/mL
C=CCNCCNC[C@]1(C)CCC[C@]2(C)c3ccc(C(C)C)cc3CC[C@@H]12	-	-	MIC	-	-	25 µM
O=C1C=C(Br)/C(=N\Cl)C=C1Br	-	H37Rv	MIC	-	-	100 µg/mL
CCOC(=O)Nc1cc(NC(c2ccc(Cl)cc2)c2ccc(Cl)cc2)c([N+](=O)[O-])c(N)n1	-	H37Rv	EC50	-	-	>12.5 µg/mL
NC(=O)NC(=O)c1nc2ccccc2[nH]c1=O	-	H37Rv	MIC	-	-	50 µg/mL
CC(C)(CO)NCCNCCc1ccccc1F	-	-	MIC	-	-	25 µM
CC(=O)C(C)(CCC#N)CCC#N	-	H37Rv	MIC	-	-	>100 µg/mL
CC(Nc1ccnc(N)c1[N+](=O)[O-])/C(=N\O)c1ccc(O)cc1	-	H37Rv	inhibition	-	12.5 µg/mL	10%
NCC[C@H](O)C(=O)N[C@@H]1C[C@H](N)[C@@H](O[C@H]2O[C@H](CN)[C@@H](O)[C@H](O)[C@H]2O)[C@H](O)[C@H]1O[C@H]1O[C@H](CO)[C@@H](O)[C@H](N)[C@H]1O	-	TN1521 (BU)	MIC	-	-	>256 µg/mL
CC(C)c1ccc2c(c1)CC[C@H]1[C@](C)(CNCCNCc3ccc4c(c3)OCO4)CCC[C@]21C	-	-	MIC	-	-	12.5 µM
CCSCCC(N)C(=O)O	-	H37Rv	MIC	-	-	>100 µg/mL
COCC(O)Cn1cc([N+](=O)[O-])nc1C	resazurin	H37Rv	MIC bound	-	-	>6.25 µg/mL
CC(=O)C1C(=O)C(=O)N(c2ccccc2)C1=O	-	H37Rv	MIC	-	-	>100 µg/mL
Cc1cc2c(cc1C)NC1=C(N2)OC(c2ccc(C3OC4=C(Nc5cc(C)c(C)cc5N4)C3=O)cc2)C1=O	BACTEC	H37Rv	MIC bound	-	-	>12.5 µg/mL
c1ccc(CCCNCCNCCC(c2ccccc2)c2ccccc2)cc1	-	-	MIC	-	-	37.5 µM
O=C(O)c1cccc([N+](=O)[O-])c1Cl	-	H37Rv	MIC	-	-	>100 µg/mL
CC(C)c1ccc2c(c1)CC[C@H]1[C@](C)(CNCCNCC(C)c3ccccc3)CCC[C@]21C	-	-	MIC	-	-	12.5 µM
CCOC(=O)c1[nH]c(C)c(C(C)=O)c1C	-	H37Rv	MIC	-	-	100 µg/mL
CCOCCCNCCNC[C@@H]1CC[C@H]2C[C@@H]1C2(C)C	-	-	MIC	-	-	50 µM
COc1cc(C(C)(C)C)c2oc3c(c2c1)C(=O)C(C(C)(C)C)=CC3(OC)OC	BACTEC	H37Rv	inhibition	-	12.5 µg/mL	8%
CCOC(=O)Nc1cc2c(c(N)n1)N=C(CN(C)c1ccccc1)CN2	-	H37Rv	EC50	-	-	<12.5 µg/mL
CN(C)C(=S)S(=O)(=O)c1ccc(Cl)cc1	-	H37Rv	MIC	-	-	8 µg/mL
C=CCN(CCNC/C=C(\C)CC=C(C)C)C1CCCC1	-	-	MIC	-	-	12.5 µM
N=C1OC(CN2CCN(c3ccccc3)CC2)CN1C(=S)Nc1ccccc1	resazurin	H37Rv	inhibition	-	6.25 µg/mL	32%
CCCCCCCCCCCCCCCCCC1=NCCN1	-	H37Rv	MIC	-	-	>100 µg/mL
CC(=O)OC12c3ccccc3C(c3ccccc31)C1C(=O)N(c3ccccc3O)C(=O)C12	BACTEC	H37Rv	MIC bound	-	-	>12.5 µg/mL
CCNc1ccc(C(=C2C=CC(=[NH+]CC)C(C)=C2)c2ccc(NCC)cc2)cc1.[Cl-]	-	H37Rv	MIC	-	-	25 µg/mL
O=C1C(=Cc2ccc(F)cc2)C(=O)c2ccccc21	BACTEC	H37Rv	MIC bound	-	-	>12.5 µg/mL
O=[N+]([O-])c1ccc(-c2ccccn2)cc1	-	H37Rv	MIC	-	-	>100 µg/mL
COc1cc(/C=C/c2ccc(OC)c(OC)c2)oc(=O)c1	BACTEC	H37Rv	MIC	-	-	≥12.5 µg/mL
CCCCCCCCCCCNCCNCCc1cccc(F)c1	-	-	MIC	-	-	25 µM
CCCCN1C(=O)C(=O)N(c2ccccc2)C1=O	BACTEC	H37Rv	inhibition	-	12.5 µg/mL	0%
O=C(O)C1CCCO1	-	H37Rv	MIC	-	-	>100 µg/mL
COC(=O)C1=CN(c2ccc(C(=O)OC)cc2)C(=O)C1=[N+]=[N-]	BACTEC	H37Rv	MIC bound	-	-	>12.8 µg/mL
COc1cc2[nH]ccc(=O)c2cc1OC	-	H37Rv	MIC	-	-	>100 µg/mL
CC(C)=NNC(=O)Nc1ccc(C)c(Cl)c1	BACTEC	H37Rv	MIC bound	-	-	≤12.5 µg/mL
CCCCCCCCCCCNCCNC1CCCCC1C	-	-	MIC	-	-	50 µM